Data on seven compounds can be found in PubChem BioAssay AID493162 (ICCB-Longwood Screening Facility, Harvard Medical School, 2011).

This is a selection; strong and weak results do not stand in their true shares. The source made the active and inactive calls. Cut-off read from the data, not from the text of the source: active = normalized absorbance mostly below about 85% (no sharp cut-off); inactive = mostly above about 86%.

The experiment relates to Vaccinia virus DNA polymerase (E9) processive complex. Nature of the experiment: vaccinia E9 polymerase processive synthesis inhibitors, primary screen, biochemical, absorbance (AID 493162). Conditions: in vitro processive DNA synthesis, absorbance read-out; hits give low values; concentration not given here.
With `CC1CN(CCc2ccccc2)CCC1=O` (configuration not stated), the normalized absorbance is inactive: 99.3%.

Turning to `CC(C)(C)OC(=O)N1CCC(Nc2ccc(OC(F)(F)F)cc2)CC1`, the normalized absorbance was inactive: 96.6%.

With `FC(F)(F)Oc1ccc(NC2CCNCC2)cc1`, the normalized absorbance was inactive: 99.2%.

As for `NC(=O)C1(Nc2ccccc2)CCN(Cc2ccccc2)CC1`, the normalized absorbance was inactive: 99.9%.

With `O=c1[nH]c2ccccc2n1C1CCN(CCCC(c2ccc(F)cc2)c2ccc(F)cc2Cl)CC1` (configuration not stated), the normalized absorbance is inactive: 91.6%.

Turning to `CC1CN(CCc2ccccc2)C(C)CC1=O` (configuration not stated), the normalized absorbance is inactive: 97.5%.

`CC(C)(C)OC(=O)N1CCC(Nc2ccccc2)CC1`: the normalized absorbance was inactive: 109%.
